Read-outs that look alike come from different tables or passages of the source.
System: mice
Assay type: in vivo
From the text: Male mice between the ages of 16-24 weeks were anesthetized with isoflurane (induction 4-5 vol %; maintenance 1-2 vol %), intubated with a 20G plastic IV catheter, and mechanically ventilated using a rodent ventilator (Inspira, volume-controlled, Harvard Apparatus, MA). ECG and rectal temperature were continuously monitored using a PC-based recording device (PowerLab 8/30, ADInstruments, Colorado Springs, Colo.). The animals were positioned in a right lateral decubital position on a heating pad and rectal temperature was maintained at 37° C. throughout the experiment. A PE-10 catheter was inserted into the left jugular vein for intravenous drug infusion. Using a dissecting microscope, a left-sided thoracotomy was performed in the 4th intercostal space. […] A ligature (8-0 Monosof MV-135-4, ⅜ 5 mm tapered needle, Syneture, Norwalk, Colo.) was placed around the left coronary artery (LCA) approximately 2 mm distal to the left atrial margin. The suture was fed through a short section of PE-10 tubing to form a snare to allow temporary occlusion. The LCA was occluded for 40 minutes; occlusion was confirmed by persistent ECG changes during occlusion and visual paling of the left ventricle (LV). After 40 minutes the snare was released and reperfusion was confirmed with visual hyperemia of the LV and return of the ECG changes. After 2 hours of reperfusion the LCA was re-occluded and fluorescent polymer microspheres (0.4% solution, diameter 1-10 μm; Duke Scientific Corporation, Palo Alto, Calif.) were infused via needle puncture of the LV apex. […] Heart was then excised, rinsed in normal saline, and the right and left atria were removed under the dissecting microscope. The remaining left and right ventricles were weighed and then sliced into seven sections (d=1 mm) for imaging and staining.
Heart sections were immediately photographed with a digital camera (Canon Powershot A620) under UV light for determination of AAR. Infarct size (I) was determined by staining the heart sections in 1% 2,3,5 triphenyltetrazolium chloride (TTC) in phosphate buffer at pH 7.4 for 10 minutes, followed by 10% neutral buffered formalin (NBF) bath overnight. Pictures were taken the next day under full spectrum light. TTC stained non-infarcted myocardium red, while infarcted myocardium remained white. Both AAR and I areas were calculated in a blinded fashion using standard imaging software (Photoshop Elements 4). A calibration ruler was present in each picture to convert pixels into volume. TTC slices were volume corrected for dehydration following formalin immersion.
The 14,15-EET was obtained from BIOMOL (Plymouth Meeting, Pa.). It was dissolved in a vehicle composed of 100% ethanol and saline (1:3), resulting in a final ethanol solution of 25%. […] SNC-162, a non-peptide δ-opioid receptor agonist, was used for comparison of the magnitude of cardioprotection found within the epoxide pathway. SNC-162 (0.1 μg/g iv over 10 minutes) was dissolved in 10% DMSO.

[1] = PRO (given prior to reperfusion)
[2] = given prior to LCA occlusion (PRE)

SMILES | AAR/Biventricular volume [1] [%] | Area At Risk [1] [mm^3] | Biventricular Weight [1] [mg] | Body Weight [1] [g] | AAR/Biventricular volume [2] [%] | Area At Risk [2] [mm^3] | Biventricular Weight [2] [mg] | Body Weight [2] [g]
CCCCCC1OC1C/C=C\C/C=C\C/C=C\CCCC(=O)O (stereo not shown) [14,15-EET] | 26 ± 4 | 33 ± 6 | 130 ± 5 | 27 ± 1 | 29 ± 1 | 36 ± 2 | 130 ± 4 | 27 ± 0
CCCCOC(=O)CCCCCCCCCCCNC(=O)NC12CC3CC(CC(C3)C1)C2 [AUDA-BE, 12-(3-adamantane-1-yl-ureido)-dodecanoic acid butyl ester] | 34 ± 1 | 45 ± 3 | 121 ± 9 | 26 ± 1 | 28 ± 2 | 39 ± 3 | 123 ± 3 | 27 ± 1

— patent publication US20090069418A1, “Compositions and Methods for the Treatment of Disorders Associated with Aberrant Vasodilation” (priority 2007, published 2009)
